## Primary screen of a compound library

Data taken from ChEMBL document CHEMBL3988442, “University of Dundee, Small-Polar-MMV Screening Library” (2021).

Results are given as percent effect.
How 0% and 100% were set is not recorded. Most values in the screen are low, and negative values occur.
The entries come from a sample that favours strong results.
A dash means the value is not listed here; it may have been measured.

Mtb glucose medium: 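Whole-cell growth test on Mycobacterium tuberculosis, read after 3 days in glucose-containing 7H9 medium; the read-out is not stated. Concentration: 500 µM. Direction is inferred from retests: higher values go with more growth inhibition. Size under these conditions: about 18,000 compounds, about 1,400 of them at 50% or above in at least one test.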
Mtb cholesterol medium: 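Phenotypic screen: M. tuberculosis growth, cholesterol and DPPC medium, 4 days; the read-out is not stated. Compounds at 500 µM. Higher reads as more growth inhibition (inferred: compounds with an IC50 in retests scored well above the rest). Size under these conditions: about 18,000 compounds, about 900 of them at 50% or above in at least one test.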

structure: NCC(=O)Nc1ccc(-n2cccn2)cc1
Mtb cholesterol medium: 18.11%

structure: OC1CCN(Cc2cc(Cl)c3c(c2)OCCO3)CC1
Mtb glucose medium: 52.05%

structure: O=C1CCCCN1CC1CCNCC1
Mtb cholesterol medium: -8.06%

structure: CNC(=O)CNC(=O)c1cc2ccccc2cc1OC
Mtb glucose medium: 58.52%

structure: CCC(C(=O)NCc1nnc(N)s1)n1cccn1 (stereo not shown)
Mtb glucose medium: 3.052%

structure: O=C1NCCNC1c1ccc(C(F)(F)F)cc1 (stereo not shown)
Mtb cholesterol medium: 13.64%

structure: CCOC(=O)C(C)n1cnc2c1c(=O)n(C)c(=O)n2C (stereo not shown)
Mtb glucose medium: 2.287%

structure: Fc1ccc(NCC2CCC3(CC2)OCCO3)nc1
Mtb glucose medium: 66.64%
Mtb cholesterol medium: 77.02%

structure: Cc1ccc2oc(CN)cc2c1
Mtb glucose medium: -6.921%
Mtb cholesterol medium: -3.703%

structure: CCOC(=O)c1cnccc1N
Mtb glucose medium: -9.997%

structure: Cc1ccccc1OCCCNC(=O)NC[C@@H](C)O
Mtb glucose medium: 52.49%
Mtb cholesterol medium: 24.36%

structure: CC(Oc1ccc(N(C)S(C)(=O)=O)cc1)C(=O)N(C)C (stereo not shown)
Mtb glucose medium: 2.018%

structure: Cc1ccc(CNC(=O)c2nccs2)cn1
Mtb glucose medium: 45.49%

structure: Cc1nc(CSCC(=O)N2CCCC2)cs1
Mtb glucose medium: 33.82%

structure: COCCOc1ccc(CN)cn1
Mtb glucose medium: 10.9%

structure: COc1ccccc1NC(=O)CN1CCCC(OC)C1 (stereo not shown)
Mtb glucose medium: 46.67%

structure: CN(C)C(=O)CN1C=Nc2ccccc2S1(=O)=O
Mtb cholesterol medium: -4.69%

structure: CNC1CCN(C(=O)C2(N)Cc3ccccc3C2)CC1
Mtb glucose medium: 10.44%

structure: NCCSCc1ccccc1F
Mtb glucose medium: 81.04%
Mtb cholesterol medium: 43.39%

structure: COCCN1CCCN(C(=O)C(C)(C)C)CC1=O
Mtb glucose medium: 0.1134%

structure: CCN1CCc2ccc(NS(=O)(=O)CC)cc21
Mtb cholesterol medium: -9.442%

structure: CC(=O)N1CCN(Cc2cncs2)C(C)(C)C1
Mtb cholesterol medium: -0.8803%

structure: Cc1ccoc1C(=O)N1CCCC(O)(CN(C)C)CC1 (stereo not shown)
Mtb cholesterol medium: 8.889%

structure: Clc1ccc(CSc2cnn[nH]2)s1
Mtb glucose medium: 73.44%
Mtb cholesterol medium: 89.09%

structure: O=C(NCCOc1ccc2c(c1)OCO2)C1CCCO1 (stereo not shown)
Mtb glucose medium: 41.59%

structure: Cc1ccc(NCc2ncc[nH]2)c(F)c1
Mtb glucose medium: 57.92%
Mtb cholesterol medium: 32.11%

structure: CC1CCc2onc(C(=O)Nc3cccnc3)c2C1 (stereo not shown)
Mtb glucose medium: -5.613%

structure: Cc1csc(CNC(=O)c2ccco2)n1
Mtb glucose medium: 51.96%

structure: CNC(=O)c1ccc(CN(C)CC2(C)COC2)cc1
Mtb glucose medium: 15.51%

structure: O=C(c1cc(Br)c[nH]1)N1CCN2CCCCC2C1 (stereo not shown)
Mtb glucose medium: 63.95%
Mtb cholesterol medium: 66.85%

structure: CC(C)N(CCS(=O)(=O)c1ccccc1)CC(N)=O
Mtb glucose medium: 52.09%
Mtb cholesterol medium: 50.53%

structure: COc1ccnc(N2CC(O)(C3CC3)C2)n1
Mtb cholesterol medium: 15.03%

structure: COc1ccc(OC)c(NC(=O)C(C)C)c1
Mtb glucose medium: 46.61%
Mtb cholesterol medium: 34.26%

structure: Cn1c(=O)ccn(CC(=O)Nc2ncccc2O)c1=O
Mtb glucose medium: -2.146%

structure: CCN(CC)CC(O)COc1ccc(OC)cc1 (stereo not shown)
Mtb glucose medium: -2.074%

structure: CCCc1cc(C(=O)NC(C)c2nncn2C)no1 (stereo not shown)
Mtb glucose medium: 5.576%

structure: O=C(NC1CCN(C2CCOCC2)CC1)c1cnc[nH]1
Mtb glucose medium: 9.015%

structure: CCc1ccc(CN2CCN3CCN(C)CC3C2)o1 (stereo not shown)
Mtb glucose medium: 6.02%
Mtb cholesterol medium: -6.281%

structure: CC(C)N1CCC2(CC1)Nc1ccccc1NC2=O
Mtb glucose medium: 14.59%

structure: O=C(c1cccc2cn[nH]c12)N1CCCC1CO (stereo not shown)
Mtb glucose medium: 69.74%

structure: Cc1cccc(CS(=O)(=O)c2nncn2C)c1
Mtb glucose medium: -5.786%

structure: CCNCc1ccc(OCC(N)=O)cc1
Mtb glucose medium: -1.02%
Mtb cholesterol medium: -8.486%

structure: CCCN1CCC(NCC(O)c2ccncc2)CC1 (stereo not shown)
Mtb glucose medium: 4.456%

structure: CSCC[C@H](N)C(=O)N1CCOC2(CCC2)C1
Mtb cholesterol medium: -11.53%

structure: CC(C)CC(C)NCc1ccc(C(N)=O)o1 (stereo not shown)
Mtb glucose medium: 11.14%

structure: CCN(CC1CCNCC1)CC1CCCO1 (stereo not shown)
Mtb cholesterol medium: -4.467%

For reference, 3 entries once more:

structure,Mtb glucose medium,Mtb cholesterol medium
Cc1csc(CNC(=O)c2ccco2)n1,51.96%,-
CC(C)N1CCC2(CC1)Nc1ccccc1NC2=O,14.59%,-
CC(Oc1ccc(N(C)S(C)(=O)=O)cc1)C(=O)N(C)C (stereo not shown),2.018%,-